3 compounds from PubChem BioAssay (NCATS) can be followed below.

Sequences of proteins named here, by UniProt entry; tags and fusion partners are left off. A change or cut given only in a name is not applied to a line headed by its entry.
UniProt P13267: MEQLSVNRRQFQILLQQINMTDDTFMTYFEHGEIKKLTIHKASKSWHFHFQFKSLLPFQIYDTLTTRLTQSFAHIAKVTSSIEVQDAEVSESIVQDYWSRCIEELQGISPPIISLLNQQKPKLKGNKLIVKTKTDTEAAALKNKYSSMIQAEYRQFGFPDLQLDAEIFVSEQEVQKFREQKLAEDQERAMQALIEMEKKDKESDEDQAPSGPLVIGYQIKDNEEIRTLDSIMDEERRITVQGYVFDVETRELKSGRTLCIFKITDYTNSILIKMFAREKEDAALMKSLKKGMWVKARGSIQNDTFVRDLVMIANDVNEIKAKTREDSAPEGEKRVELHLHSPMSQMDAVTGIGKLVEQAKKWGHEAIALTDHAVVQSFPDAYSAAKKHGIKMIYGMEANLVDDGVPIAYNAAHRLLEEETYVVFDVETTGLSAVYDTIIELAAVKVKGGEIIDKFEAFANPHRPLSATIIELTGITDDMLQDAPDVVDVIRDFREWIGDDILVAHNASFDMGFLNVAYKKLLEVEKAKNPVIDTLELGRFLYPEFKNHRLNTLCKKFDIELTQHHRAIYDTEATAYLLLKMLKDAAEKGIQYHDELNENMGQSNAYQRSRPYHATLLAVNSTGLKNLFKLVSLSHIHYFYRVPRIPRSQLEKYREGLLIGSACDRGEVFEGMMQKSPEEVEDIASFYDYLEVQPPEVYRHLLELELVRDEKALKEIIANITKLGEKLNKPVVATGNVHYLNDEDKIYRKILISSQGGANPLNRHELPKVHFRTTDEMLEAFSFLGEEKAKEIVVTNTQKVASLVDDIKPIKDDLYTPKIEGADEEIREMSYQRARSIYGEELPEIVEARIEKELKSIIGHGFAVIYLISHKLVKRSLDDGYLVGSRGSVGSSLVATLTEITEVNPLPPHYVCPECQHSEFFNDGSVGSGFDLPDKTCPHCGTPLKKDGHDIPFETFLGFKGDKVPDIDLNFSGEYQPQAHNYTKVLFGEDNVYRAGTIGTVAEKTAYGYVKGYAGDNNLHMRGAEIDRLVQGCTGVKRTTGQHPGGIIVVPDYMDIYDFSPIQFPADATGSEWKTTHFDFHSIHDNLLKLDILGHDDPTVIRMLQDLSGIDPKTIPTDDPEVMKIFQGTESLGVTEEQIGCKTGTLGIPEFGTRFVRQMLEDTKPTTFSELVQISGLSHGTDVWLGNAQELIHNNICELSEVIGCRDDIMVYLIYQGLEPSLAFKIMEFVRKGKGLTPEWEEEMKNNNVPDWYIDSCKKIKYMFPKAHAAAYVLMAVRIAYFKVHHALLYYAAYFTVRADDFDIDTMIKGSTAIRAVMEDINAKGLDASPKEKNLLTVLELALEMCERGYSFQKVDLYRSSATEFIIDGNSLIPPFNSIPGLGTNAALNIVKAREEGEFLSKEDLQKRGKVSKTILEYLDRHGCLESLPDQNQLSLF
UniProt Q99816: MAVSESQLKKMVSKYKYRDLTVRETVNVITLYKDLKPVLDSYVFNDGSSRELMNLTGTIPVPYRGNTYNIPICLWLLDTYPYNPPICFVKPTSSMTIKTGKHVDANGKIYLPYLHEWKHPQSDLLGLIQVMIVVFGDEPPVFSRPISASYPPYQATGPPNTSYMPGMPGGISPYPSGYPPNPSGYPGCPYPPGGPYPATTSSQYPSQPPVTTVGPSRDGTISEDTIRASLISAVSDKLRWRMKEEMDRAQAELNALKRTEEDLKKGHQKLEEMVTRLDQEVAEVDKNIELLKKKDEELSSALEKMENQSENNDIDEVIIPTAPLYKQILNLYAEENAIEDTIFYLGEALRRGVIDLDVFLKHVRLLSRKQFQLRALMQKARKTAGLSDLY
UniProt P09992: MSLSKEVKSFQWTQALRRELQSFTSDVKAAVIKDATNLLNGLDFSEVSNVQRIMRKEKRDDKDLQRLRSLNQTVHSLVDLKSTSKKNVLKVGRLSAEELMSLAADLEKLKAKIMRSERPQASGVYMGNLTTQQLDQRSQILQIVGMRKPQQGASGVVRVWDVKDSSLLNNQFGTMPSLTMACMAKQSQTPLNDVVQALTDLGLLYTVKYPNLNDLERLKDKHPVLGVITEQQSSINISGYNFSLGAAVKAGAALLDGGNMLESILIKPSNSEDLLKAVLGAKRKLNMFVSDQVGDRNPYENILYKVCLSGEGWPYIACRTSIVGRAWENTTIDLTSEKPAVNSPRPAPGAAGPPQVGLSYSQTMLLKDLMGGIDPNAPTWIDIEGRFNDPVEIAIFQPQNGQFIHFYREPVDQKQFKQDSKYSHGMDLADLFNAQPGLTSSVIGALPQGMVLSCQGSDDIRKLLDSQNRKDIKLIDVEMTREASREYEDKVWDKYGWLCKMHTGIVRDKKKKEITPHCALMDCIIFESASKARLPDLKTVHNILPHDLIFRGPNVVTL
UniProt Q27686: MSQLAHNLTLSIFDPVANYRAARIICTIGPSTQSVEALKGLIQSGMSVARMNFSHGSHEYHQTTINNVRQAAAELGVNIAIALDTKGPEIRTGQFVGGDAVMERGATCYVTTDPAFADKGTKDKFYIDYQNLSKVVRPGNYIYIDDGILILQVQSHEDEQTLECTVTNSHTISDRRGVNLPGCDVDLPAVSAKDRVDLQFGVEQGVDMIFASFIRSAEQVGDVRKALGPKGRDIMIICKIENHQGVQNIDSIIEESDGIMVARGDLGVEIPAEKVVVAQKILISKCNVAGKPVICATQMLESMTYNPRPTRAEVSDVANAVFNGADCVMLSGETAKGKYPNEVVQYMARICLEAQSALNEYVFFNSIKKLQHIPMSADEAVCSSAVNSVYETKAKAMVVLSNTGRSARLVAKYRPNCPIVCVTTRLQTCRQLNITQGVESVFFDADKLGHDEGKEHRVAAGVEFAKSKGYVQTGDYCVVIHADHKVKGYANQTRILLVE

Test [1] addresses Endonuclease 4 (Escherichia coli (strain K12)) (UniProt P0A6C1). The test can be described thus: Counterscreen for APE1 Inhibitors: qHTS Validation Assay for Inhibitors of Endonuclease IV (AID 1708). Note: % is set by controls: 0 for no effect and ±100 for the full control effect. The following applies: E. coli endonuclease IV, DNA cleavage fluorescence; at 57.1 µM (top of the series). In short, it runs like this:
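E. coli EndoIV at 2 nM final, preincubated 15 min at room temperature with compound, then 50 nM TAMRA/BHQ-2 THF abasic-site duplex added. Buffer: 50 mM Tris-HCl pH 7.5, 50 mM NaCl, 2 mM MgCl2, 1 mM DTT, 0.01% Tween-20. Kinetic fluorescence increase, third minus first read.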

The nature of test [2]: qHTS for differential inhibitors of proliferation of Plasmodium falciparum line Dd2 (AID 1882). Note: potency is the fitted concentration of half-maximal effect; nearly all actives have a fitted effect of over 65% in size. The settings on record: Plasmodium falciparum Dd2 proliferation inhibition. The method in brief:
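Dd2-infected erythrocytes (0.3% parasitemia, 2.5% hematocrit final) incubated with compound 72 h at 37 C, 5% CO2; lysed with saponin/Triton buffer containing SYBR Green I, incubated overnight in the dark, then read by fluorescence (485/535 nm). Normalized to 0.29 uM artemisinin and DMSO.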

The nature of test [3]: Validation screen for inhibitors of Lassa infection (AID 463096; calls by dose curve; note: % is set by controls: 0 for no effect and ±100 for the full control effect). The settings on record: Lassa virus infection, cell-based; at 46.1 µM (top of the series).
Test [4] addresses DNA polymerase III PolC-type (Bacillus subtilis (strain 168)) (UniProt P13267). Put plainly: qHTS Validation Assay for the Inhibitors of DNA Replication in Gram-Positive Bacteria (AID 485295).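 Note: PicoGreen fluorescence of double-stranded DNA made on primed circular M13 template; 0% = DMSO wells and -100% = EDTA-quenched background wells.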 The following applies: Gram-positive bacterial DNA replication assay; at 57.1 µM (top of the series). The method in brief: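 Reconstituted B. subtilis Pol III holoenzyme (PolC, beta clamp, SSB, primase) preincubated with compound, then M13Gori single-stranded circular template with dNTPs/NTPs added; room temperature reaction. Stopped with EDTA/PicoGreen; dsDNA fluorescence read, EDTA as full-inhibition control.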

For test [5], the target named is Tumor susceptibility gene 101 protein (Homo sapiens) (UniProt Q99816). The test can be described thus: qHTS Validation Assay for Iinhibitors of HIV-1 Budding by Blocking the Interaction of PTAP/TSG101 (AID 485342; calls by dose curve; note: 0% is about no effect). The following applies: TSG101-PTAP binding, fluorescence polarization, 4-point titration; at 115 µM (top of the series). In short, it runs like this:
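Tsg101 binding domain (10 uM) with FITC-labeled PTAP peptide (50 nM) in HEPES pH 7.5 buffer, 20 min at r.t. with compounds. Binding measured by fluorescence polarization.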

Test [6] can be described thus: Quantitative high throughput screen for delayed death inhibitors of the malarial parasite plastid, 96 hour incubation (AID 488745).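 Note: luciferase-expressing P. falciparum in erythrocytes at 2% hematocrit and 0.1% parasitemia; % is set by controls: 0 for no effect and ±100 for the full control effect; nearly all actives have a fitted effect of over 70% in size.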 The settings on record: Plasmodium falciparum growth; at 28.7 µM (top of the series). The method in brief: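 Infected erythrocytes were added to compound in Albumax-supplemented RPMI 1640 at 0.1% parasitemia and 2% hematocrit (final), incubated 96 h at 37 C under 5% CO2, then luciferase reagent was added and luminescence measured.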

Test [7] concerns the target Phosphoglycerate kinase, glycosomal (Trypanosoma brucei brucei) (UniProt P07378). Put plainly: qHTS Validation Assay to Find Inhibitors of Phosphoglycerate Kinase (AID 504547).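 Note: control wells lack PGK and mark full inhibition.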 The following applies: enzymatic PGK inhibition, coupled luminescence read-out; at 57.5 µM (top of the series). The method in brief: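 PGK activity was coupled to GAPDH (100nM final), which generates the unstable substrate 1,3-bisphosphoglycerate in-well. Reactions ran 60 minutes at room temperature in 100mM TEA pH 7.6, 5mM MgCl2, 0.01% Tween-20, then Kinase-Glo Plus luminescence was read.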

The target in test [8] is phosphoglycerate mutase (Leishmania major) (UniProt Q4Q090). Put plainly: qHTS Validation Assay to Find Inhibitors of Phosphoglycerate Mutase (AID 504548).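 Note: end-point luminescence from Kinase-GloPlus after the PGAM reaction; % is set by controls: 0 for no effect and ±100 for the full control effect.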 The following applies: biochemical enzyme activity; at 57.5 µM (top of the series). The method in brief: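 L. major PGAM (1.25nM final) was added to substrate buffer and pinned compound, incubated 45 minutes at room temperature, then Kinase-GloPlus added; luminescence read after 10 minutes. Buffer: 100 mM TEA pH 7.6, 5 mM MgCl2, 0.01% Tween-20.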

Test [9] is described as follows: qHTS of Trypanosoma Brucei Inhibitors: LOPAC Validation (AID 624147). Note: 0% is about no effect. The settings on record: Trypanosoma brucei growth inhibition; at 57.5 µM (top of the series). The method in brief:
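Assay buffer: 50 mM TEA pH 7.2, 100 mM KCl, 10 mM MgCl2, 0.05% BSA, 0.01% Tween-20. Pyruvate kinase from T. brucei plus substrate met compound, then ADP (130 uM final). Luminescence was read post 45 min RT.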

Test [10] can be described thus: qHTS assay for measurement of the activity of small molecule inhibitors on Zika virus induced Caspase-3 activity in human iPSC derived neural progenitor cells (hNPCs) (AID 1224857). Note: % of control where 0% means no effect; nearly all actives have a fitted effect of over 65% in size. The settings on record: hNPCs ZIKV-induced caspase-3/7, Caspase-Glo luminescence, 6 h; at 45.7 µM (top of the series) unless noted.
Test [11] can be described thus: qHTS assay for measurement of the activity of small molecule inhibitors on Zika virus induced Caspase-3 activity in human astrocytoma cells (AID 1224859).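 Note: plate controls were ZIKV-infected untreated cells for no effect and uninfected cells for full effect.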 The settings on record: SNB-19 ZIKV-induced caspase-3/7, luminescence, 6 h; at 45.7 µM (top of the series) unless noted.
Test [12] can be described thus: NS1 protein of Zika virus - qHTS assay to identify small molecule inhibitors in human HEK 293 cells (AID 1347053).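 Note: plate controls were infected untreated cells for no effect and uninfected cells for full effect; nearly all actives have a fitted effect of over 55% in size.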 The following applies: HEK293 ZIKV MR766 infection, NS1 TR-FRET, 24 h; at 46.1 µM (top of the series) unless noted.
Test [13] is described as follows: qHTS for Inhibitors of the Functional Ribonucleoprotein Complex (vRNP) of Lassa (LASV) Arenavirus: LASV Primary Screen - GLuc reporter signal (AID 1347082; calls by dose curve; tested in HEK293 reporter line; note: % is set by controls: 0 for no effect and ±100 for the full control effect; nearly all actives have a fitted effect of over 60% in size). The settings on record: LASV minigenome vRNP, Gaussia luciferase reporter; at 57.5 µM (top of the series) unless noted.
Test [14] is described as follows: qHTS for Inhibitors of the Functional Ribonucleoprotein Complex (vRNP) of Lassa (LASV) Arenavirus: Viability assay - alamar blue signal for LASV Primary Screen (AID 1347083; calls by dose curve; tested in HEK293 reporter line; note: % is set by controls: 0 for no effect and ±100 for the full control effect; nearly all actives have a fitted effect of over 80% in size). The settings on record: cell viability, alamar blue fluorescence (LASV minigenome counter-screen); at 57.5 µM (top of the series) unless noted.
A short description of test [15]: qHTS for Inhibitors of the Functional Ribonucleoprotein Complex (vRNP) of Lymphocytic Choriomeningitis Arenaviruses (LCMV): Viability assay - alamar blue signal for LCMV Primary Screen (AID 1347085; calls by dose curve; tested in HEK293 reporter line; note: % is set by controls: 0 for no effect and ±100 for the full control effect; nearly all actives have a fitted effect of over 80% in size). The following applies: alamar blue viability counter-screen, LCMV vRNP screen cells; at 57.5 µM (top of the series) unless noted.
The target of test [16] is Nucleoprotein (Lymphocytic choriomeningitis virus (strain Armstrong)) (UniProt P09992). Put plainly: qHTS for Inhibitors of the Functional Ribonucleoprotein Complex (vRNP) of Lymphocytic Choriomeningitis Arenaviruses (LCMV): LCMV Primary Screen - GLuc reporter signal (AID 1347086; calls by dose curve; note: % is set by controls: 0 for no effect and ±100 for the full control effect; nearly all actives have a fitted effect of over 70% in size). The settings on record: LCMV minigenome vRNP cell assay, Gaussia luciferase reporter; at 57.5 µM (top of the series) unless noted.

The test system of test [17] is Zika virus NS2B-NS3 protease (unlinked). The test can be described thus: Optimization of GU AMC qHTS for Zika virus inhibitors: Unlinked NS2B-NS3 protease assay (AID 1347151).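 Note: 0% = no-inhibitor control and -100% = no-enzyme control; nearly all actives have a fitted effect of over 80% in size.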 The settings on record: recombinant ZIKV NS2B-NS3 protease, fluorogenic AMC substrate; at 52.5 µM (top of the series). In short, it runs like this: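 Noncovalent NS2B hydrophilic domain–NS3 protease complex (25 nM final) in 10 mM Tris-HCl pH 8.0, 0.01% Tween 20; AMC substrate, room temperature 15 min (~20% conversion); fluorescence change normalized, 4-parameter Hill fit.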

Test [18] is described as follows: Primary qHTS for inhibitors of La Crosse Virus (LACV) - induced cell death in SH-SY5Y cells (AID 1508616).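 Note: top concentration of the series differs between compounds; 0% = infected DMSO wells and 100% = uninfected DMSO wells; higher means more rescue of cells from virus-induced death.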 The settings on record: SH-SY5Y LACV cytopathicity rescue, ATP luminescence, 6 d; at 9.63 µM (top of the series) unless noted. In short, it runs like this:
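Protection against LACV-induced cell death is scored in SH-SY5Y cells exposed to compounds and virus (0.01 MOI) for 6 days. Data normalized to virus-infected DMSO wells and virus-free DMSO wells.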

Test [19] addresses Pyruvate kinase (Leishmania mexicana) (UniProt Q27686). Put plainly: qHTS Validation Assay for Inhibitors of Leishmania Mexicana Pyruvate Kinase (AID 945).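 Note: 0% = DMSO only neutral control wells.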 The settings on record: purified L. mexicana pyruvate kinase, enzyme activity, E451W mutant enzyme; at 57.5 µM (top of the series). In short, it runs like this:
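Pyruvate kinase activity of E451W LmPYK (0.2 nM) was followed as ATP output after 1 h at room temperature with 0.5 mM PEP and 0.1 mM ADP, detected by PKLight luminescence.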

For test [20], the system named is Zika virus NS2B-NS3 protease. Put plainly: Primary screen GU AMC qHTS for Zika virus inhibitors (AID 1347154).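 Note: 0% = no-inhibitor control and -100% = no-enzyme control; nearly all actives have a fitted effect of over 70% in size.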 The following applies: Zika NS2B-NS3 unlinked protease, AMC fluorogenic substrate; at 54.1 µM (top of the series) unless noted.

SMILES strings stand for the structures. The entries are a selection whose mix differs from that of the whole data set. Records with an inconclusive call do not appear. The source made the active and inactive calls. Unless noted, calls come from the whole dose curve; as a rule, active = well fitted curve in the direction sought with a large enough effect; inconclusive = small, poorly fitted or top-dose-only effect, or another doubt; inactive = no such curve, though single readings can be large; an effect the other way counts as inactive or inconclusive.

Turning to `CN(C(=O)Cc1ccccc1)[C@@H]1CC[C@]2(CCCO2)C[C@H]1N1CCCC1`, the activity change, negative = inhibition was inactive: -5.06% in [1]; inactive: -4.79% in test [3]; inactive: -2.2% in test [4]; inactive: -92.4% in test [6]; inactive: -5.8% in test [8]; inactive: -9.99% in [9]. Also, the activity change, negative = inhibition in test [10] is inactive: 112%; in test [11] it was inactive: 4.86%; in [12] it was inactive: -3.53%; in test [13], inactive: -2.5%; in test [16], inactive: 9.77%; in [17] it was inactive: -4.56%. The Potency in test [2] was active: 10 µM. Besides, the fluorescence change in test [5] is inactive: 5.63%. Also, the activity, negative = inhibition in test [7] is inactive: 1.29%. For the same compound, the activity change, negative = reduced viability in test [14] was inactive: 27.5%. In test [15], the activity change, negative = lower viability is inactive: 5.24%. Moreover, the activity change in test [18] was inactive: 22.2%.

Consider `CN(C(=O)Cc1ccc(Cl)c(Cl)c1)[C@@H]1CC[C@@]2(CCCO2)C[C@H]1N1CCCC1`, for which the activity change, negative = inhibition in [19] was inactive: 6.17%.

As for `CC(=O)C1=CCCC2CCC1N2` (centres undefined), the activity change, negative = inhibition in [13] is inactive: -6.82%; in [16], inactive: -0.821%; in [20], inactive: 1.28%. Moreover, in test [14], the activity change, negative = reduced viability is inactive: 12.5%. In addition, the activity change, negative = lower viability in test [15] is inactive: 23.7%.
